From article PMC9394474 (Viruses, 2022) come the findings set out here.

The target in assay [1] is T1, human hisTRIM7-PRYSPRY (human, UniProt Q9C029 342-511).
T1 construct: vector pOPTH; also called hTRIM7-PRYSPRY; hTRIM7
The experiment in a line: ITC. The following applies: both partners purified.

For assay [2], the target named is T1, human hisTRIM7-PRYSPRY. In words: crystal structure; TRIM7 PRYSPRY co-crystallised with added synthetic peptide. The note with it: both partners purified.

B1: MNV NS3 C-terminal peptide (peptide)
peptide: HDDFGLQ
notes: source: synthetic peptide (GenScript, Oxford, UK)
For the molecule B1, in the assay with human hisTRIM7-PRYSPRY [1], the binding result is “binds”.

B2: CVB3 2BC C-terminal peptide (peptide)
peptide: TIEALFQ
notes: source: synthetic peptide (DesignerBioscience, Cambridge, UK)
B2: in the assay with human hisTRIM7-PRYSPRY [2], the binding result is given as “binds”.

B3: MNV NS6 C-terminal peptide (peptide)
peptide: LEALEFQ
notes: as for B1
On to B3, for which the binding result in the assay with human hisTRIM7-PRYSPRY [1] is “binds”.
